Reference: PubChem BioAssay AID624099 (ICCB-Longwood, 2012)
The whole screen tested about 21,000 reagents; this is a part drawn at random. In the full data, 497 (2.4%) are marked active. 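Higher z means weaker E2 silencing; only reporter increases were scored, and knock-downs that hurt cell survival may mask genuine repressor factors.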

Assay: 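Human genes that papillomavirus E2 requires to repress the HPV18 LCR promoter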 (primary screen)
Cell system: human C33A cervical carcinoma cells (HPV-negative) stably expressing BPV1 E2 and an HPV18 LCR luciferase reporter
Reagents: siRNA pool against human genes, 40 nM
Timing: 72 h
Read-out: 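Per-well luciferase luminescence, z-scored on each plate against the plate mean and SD with control wells left out, then averaged across three replicate plates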
Direction: mean z-score and z-score: higher = stronger reporter signal, weaker E2 silencing
Rule for the call: 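Mean z ≥ 2 together with z ≥ 2 in two or more of the three replicates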

LINC01498 (long independently transcribed non-coding RNA 1498) [SID134328348]: mean z-score = 0.09; z-score, replicate A = 0.02; z-score, replicate B = 0.09; z-score, replicate C = 0.17; call = inactive
DANCR (differentiation antagonizing non-protein coding RNA) [SID134325953]: mean z-score = 1.45; z-score, replicate A = 1.66; z-score, replicate B = 1.45; z-score, replicate C = 1.25; call = inactive
LOC401732 (retired record) [SID134328461]: mean z-score = 0.16; z-score, replicate A = 0.1; z-score, replicate B = 0.08; z-score, replicate C = 0.3; call = inactive
FAM217B (family with sequence similarity 217 member B) [SID134318101]: mean z-score = -1.42; z-score, replicate A = -1.69; z-score, replicate B = -1.85; z-score, replicate C = -0.72; call = inactive
OPRM1 (opioid receptor mu 1) [SID134311125]: mean z-score = 0.39; z-score, replicate A = 0.57; z-score, replicate B = 0.13; z-score, replicate C = 0.48; call = inactive
C1QTNF6 (C1q and TNF related 6) [SID134322986]: mean z-score = -0.46; z-score, replicate A = -0.27; z-score, replicate B = -0.41; z-score, replicate C = -0.69; call = inactive
KCNJ5 (potassium inwardly rectifying channel subfamily J member 5) [SID134311668]: mean z-score = 0; z-score, replicate A = 0.11; z-score, replicate B = -0.3; z-score, replicate C = 0.2; call = inactive
NAB2 (NGFI-A binding protein 2) [SID134323819]: mean z-score = 0.23; z-score, replicate A = 0.24; z-score, replicate B = 0.26; z-score, replicate C = 0.2; call = inactive
NLRP8 (NLR family pyrin domain containing 8) [SID134323257]: mean z-score = -0.69; z-score, replicate A = -0.69; z-score, replicate B = -0.62; z-score, replicate C = -0.74; call = inactive
NR2C1 (nuclear receptor subfamily 2 group C member 1) [SID134309868]: mean z-score = -0.55; z-score, replicate A = -0.59; z-score, replicate B = -0.53; z-score, replicate C = -0.53; call = inactive

A few values from the entries so far:
NLRP8 (NLR family pyrin domain containing 8) [SID134323257], z-score, replicate A: -0.69
For “z-score, replicate C”, DANCR (differentiation antagonizing non-protein coding RNA) [SID134325953] reads 1.25
Value for C1QTNF6 (C1q and TNF related 6) [SID134322986] in “call”: inactive
Value for LINC01498 (long independently transcribed non-coding RNA 1498) [SID134328348] in “z-score, replicate B”: 0.09

The list goes on.
ALMS1 (ALMS1 centrosome and basal body associated protein) [SID134317139]: mean z-score = 0.09; z-score, replicate A = 0.04; z-score, replicate B = 0.05; z-score, replicate C = 0.18; call = inactive
ERMP1 (endoplasmic reticulum metallopeptidase 1) [SID134311303]: mean z-score = -0.2; z-score, replicate A = 0.04; z-score, replicate B = -0.39; z-score, replicate C = -0.24; call = inactive
PEDS1 (plasmanylethanolamine desaturase 1) [SID134329670]: mean z-score = 0.54; z-score, replicate A = 0.23; z-score, replicate B = 0.45; z-score, replicate C = 0.95; call = inactive
EHD3 (EH domain containing 3) [SID134310598]: mean z-score = -0.01; z-score, replicate A = 0.46; z-score, replicate B = -0.17; z-score, replicate C = -0.32; call = inactive
BRINP2 (BMP/retinoic acid inducible neural specific 2) [SID134318210]: mean z-score = -0.04; z-score, replicate A = -0.51; z-score, replicate B = 0.24; z-score, replicate C = 0.16; call = inactive
MAML2 (mastermind like transcriptional coactivator 2) [SID134317788]: mean z-score = -0.48; z-score, replicate A = -0.54; z-score, replicate B = -0.58; z-score, replicate C = -0.31; call = inactive
HS2ST1 (heparan sulfate 2-O-sulfotransferase 1) [SID134310114]: mean z-score = 1.36; z-score, replicate A = 1.14; z-score, replicate B = 1.44; z-score, replicate C = 1.48; call = inactive
C9orf43 (chromosome 9 open reading frame 43) [SID134319607]: mean z-score = -0.89; z-score, replicate A = -0.51; z-score, replicate B = -1.04; z-score, replicate C = -1.11; call = inactive
ANKFY1 (ankyrin repeat and FYVE domain containing 1) [SID134317395]: mean z-score = -1.09; z-score, replicate A = -0.6; z-score, replicate B = -1.36; z-score, replicate C = -1.31; call = inactive
RPRM (reprimo, TP53 dependent G2 arrest mediator homolog) [SID134324360]: mean z-score = 0.17; z-score, replicate A = 0.13; z-score, replicate B = 0.4; z-score, replicate C = -0.02; call = inactive
CTSD (cathepsin D) [SID134309991]: mean z-score = -0.93; z-score, replicate A = -1.02; z-score, replicate B = -1; z-score, replicate C = -0.76; call = inactive
H3C3 (H3 clustered histone 3) [SID134315787]: mean z-score = -1.52; z-score, replicate A = -1.38; z-score, replicate B = -1.55; z-score, replicate C = -1.63; call = inactive
MICU1 (mitochondrial calcium uptake 1) [SID134316980]: mean z-score = -0.81; z-score, replicate A = -0.91; z-score, replicate B = -0.88; z-score, replicate C = -0.64; call = inactive
RBAKDN (RBAK downstream neighbor) [SID134329265]: mean z-score = -0.44; z-score, replicate A = -0.32; z-score, replicate B = -0.49; z-score, replicate C = -0.51; call = inactive
SPIC (Spi-C transcription factor) [SID134320274]: mean z-score = -0.04; z-score, replicate A = -0.1; z-score, replicate B = -0.05; z-score, replicate C = 0.02; call = inactive
PSMA1 (proteasome 20S subunit alpha 1) [SID134314756]: mean z-score = -1.26; z-score, replicate A = -1.05; z-score, replicate B = -1.45; z-score, replicate C = -1.29; call = inactive
SMN1 (survival of motor neuron 1, telomeric) [SID134315467]: mean z-score = -0.34; z-score, replicate A = -0.81; z-score, replicate B = 0.05; z-score, replicate C = -0.26; call = inactive
